Assay [1] deals with Haemophilus influenzae IX3. As to the kind of experiment: Antibacterial spectrum (Table I). To be noted: serial dilutions in fluid medium, inoculum 10^4 CFU (gramnegative organism).
For a further assay, the system named is Strep. pyogenes EC. Nature of the assay: Antibacterial spectrum (Table I). The note with it: serial dilutions in fluid medium, inoculum 10^ CFU (grampositive organism).
Another assay concerns Salm. typhimurium HL2. Nature of the assay: Antibacterial spectrum (Table I). To be noted: serial dilutions in fluid medium, inoculum 10^4 CFU (gramnegative organism).
The test system of a further assay is Proteus vulg. HJ. As to the kind of experiment: Antibacterial spectrum (Table I). To be noted: serial dilutions in fluid medium, inoculum 10^4 CFU (gramnegative organism).
For assay [2], the system named is Escherichia coli HA58 (RTEM). As to the kind of experiment: Antibacterial spectrum (Table I). The note with it: serial dilutions in fluid medium, inoculum 10^4 CFU (gramnegative organism).
Assay [3] deals with Neisseria meningitidis DB. Nature of the assay: Antibacterial spectrum (Table I). To be noted: serial dilutions in fluid medium, inoculum 10^4 CFU (gramnegative organism).
Assay [4] has as its system Enterobact. aerogenes HC7A. Nature of the assay: Antibacterial spectrum (Table I). To be noted: serial dilutions in fluid medium, inoculum 10^4 CFU (gramnegative organism).
The subject of a further assay is Strep. faecalis EI3. Nature of the assay: Antibacterial spectrum (Table I). The note with it: serial dilutions in fluid medium, inoculum 10^ CFU (grampositive organism).
Another assay relates to Pseud. aeruginosa BA2. Nature of the assay: Antibacterial spectrum (Table I). To be noted: serial dilutions in fluid medium, inoculum 10^4 CFU (gramnegative organism).
For the next assay, the system named is Staph. aureus CJ9. As to the kind of experiment: Antibacterial spectrum (Table I). The note with it: serial dilutions in fluid medium, inoculum 10^ CFU (grampositive organism).
The subject of another assay is Alcaligenes faecalis GA. Nature of the assay: Antibacterial spectrum (Table I). To be noted: serial dilutions in fluid medium, inoculum 10^4 CFU (gramnegative organism).
Assay [5] concerns Neisseria gonorrhoeae DA2. Nature of the assay: Antibacterial spectrum (Table I). To be noted: serial dilutions in fluid medium, inoculum 10^4 CFU (gramnegative organism).
In another assay the test system is Kleb. pneumoniae HE. As to the kind of experiment: Antibacterial spectrum (Table I). The note with it: serial dilutions in fluid medium, inoculum 10^4 CFU (gramnegative organism).
Another assay concerns Escherichia coli HA2. As to the kind of experiment: Antibacterial spectrum (Table I). To be noted: serial dilutions in fluid medium, inoculum 10^4 CFU (gramnegative organism).
In another assay the test system is Dipl. pneumoniae EA. Nature of the assay: Antibacterial spectrum (Table I). The note with it: serial dilutions in fluid medium, inoculum 10^ CFU (grampositive organism).
The subject of the next assay is Shigella dystenteriae HR. As to the kind of experiment: Antibacterial spectrum (Table I). The note with it: serial dilutions in fluid medium, inoculum 10^4 CFU (gramnegative organism).
Another assay has as its system β-lactamases. To be noted: literature report; cited from earlier work.

The structures appear in SMILES notation. Values after ≈ are worked out from the molar mass of the structure shown. A value given as a limit tells only on which side of the number the result lay.

Here are results for four compounds from patent publication US4594246A, “Pharmaceutically-acceptable amine salts of 6-β-halopenicillanic acids” (Leo Pharmaceutical Products, priority 1979, dated 1986).

On to `CC1(C)S[C@@H]2[C@H](Br)C(=O)N2[C@H]1C(=O)O`, for which the IC50 in assay [1] stood at 32 µg/mL (≈ 114 µM); with Strep. pyogenes EC, 6.3 µg/mL (≈ 22.5 µM); with Salm. typhimurium HL2, 100 µg/mL (≈ 357 µM); in the assay with Proteus vulg. HJ, 40 µg/mL (≈ 143 µM); in assay [2], 100 µg/mL (≈ 357 µM); in assay [3], 0.79 µg/mL (≈ 2.82 µM). For the same compound, the IC50 in assay [4] is 63 µg/mL (≈ 225 µM); with Strep. faecalis EI3, greater than 100 µg/mL; in the assay on Pseud. aeruginosa BA2, greater than 100 µg/mL; in the assay on Staph. aureus CJ9, 32 µg/mL (≈ 114 µM); in the assay on Alcaligenes faecalis GA it was 2.0 µg/mL (≈ 7.14 µM); in assay [5], 0.25 µg/mL (≈ 0.892 µM). For the same compound, the IC50 in the assay with Kleb. pneumoniae HE worked out at 63 µg/mL (≈ 225 µM); with Escherichia coli HA2, 50 µg/mL (≈ 178 µM); in the assay with Dipl. pneumoniae EA, 1.6 µg/mL (≈ 5.71 µM); in the assay with Shigella dystenteriae HR it was 50 µg/mL (≈ 178 µM).

As to `CC1(C)S[C@@H]2[C@H](I)C(=O)N2[C@H]1C(=O)O`, the IC50 is greater than 100 µg/mL in assay [1]; 5.0 µg/mL (≈ 15.3 µM) in the assay on Strep. pyogenes EC; greater than 100 µg/mL with Salm. typhimurium HL2; 100 µg/mL (≈ 306 µM) in the assay on Proteus vulg. HJ; greater than 100 µg/mL in assay [2]; 1.6 µg/mL (≈ 4.89 µM) in [3]. Further, the IC50 in [4] was greater than 100 µg/mL; in the assay on Strep. faecalis EI3 it was greater than 100 µg/mL; in the assay with Pseud. aeruginosa BA2, greater than 100 µg/mL; with Staph. aureus CJ9 it was 63 µg/mL (≈ 193 µM); in the assay on Alcaligenes faecalis GA it was 10 µg/mL (≈ 30.6 µM); in assay [5] it was 0.79 µg/mL (≈ 2.41 µM). Moreover, the IC50 with Kleb. pneumoniae HE was greater than 100 µg/mL; in the assay with Escherichia coli HA2, greater than 100 µg/mL; in the assay on Dipl. pneumoniae EA, 5.0 µg/mL (≈ 15.3 µM); with Shigella dystenteriae HR, greater than 100 µg/mL.

For `CC1(C)S[C@@H]2[C@H](Cl)C(=O)N2[C@H]1C(=O)O`, the IC50 in assay [1] is 20 µg/mL (≈ 84.9 µM); in the assay on Strep. pyogenes EC, 6.3 µg/mL (≈ 26.7 µM); in the assay with Salm. typhimurium HL2 it was 100 µg/mL (≈ 424 µM); in the assay on Proteus vulg. HJ, 40 µg/mL (≈ 170 µM); in assay [2], greater than 100 µg/mL; in assay [3] it was 0.63 µg/mL (≈ 2.67 µM). Also, the IC50 is 63 µg/mL (≈ 267 µM) in [4]; greater than 100 µg/mL with Strep. faecalis EI3; greater than 100 µg/mL with Pseud. aeruginosa BA2; 40 µg/mL (≈ 170 µM) with Staph. aureus CJ9; 2.5 µg/mL (≈ 10.6 µM) in the assay with Alcaligenes faecalis GA; 0.20 µg/mL (≈ 0.849 µM) in assay [5]. Further, the IC50 in the assay on Kleb. pneumoniae HE came to 63 µg/mL (≈ 267 µM); with Escherichia coli HA2, 50 µg/mL (≈ 212 µM); in the assay on Dipl. pneumoniae EA, 5.0 µg/mL (≈ 21.2 µM); with Shigella dystenteriae HR, 40 µg/mL (≈ 170 µM).

For the compound `CC1(C)S[C@@H]2[C@@H](Br)C(=O)N2[C@H]1C(=O)O`, the “inhibition of β-lactamases reported in the literature” value with β-lactamases is recorded as “no effect on these enzymes”.

Usually IC50 stands for the concentration needed to halve the response being measured. A lower IC50 goes with greater potency.
